Pooled drug test results. Numbers come from NIAID ChemDB, via PubChem.

Common to all: tests in culture; species: HIV-1; cell line: PBMC; read-out: EC50

Neighbouring rows are from separate reports. ECn is the concentration giving n% inhibition of infection, replication or growth. An empty or dashed field is not shown.

SMILES | strain | changes | read by | setting | result
CC(C)c1cc2c(c(O)c1O)[C@@]1(C(=O)O)CCCC(C)(C)C1CC2 | clinical isolate 1(A MDR X4) | PR-L10I I15V E35D N37E K45R I54V L63P A71V V82T L90M I93L C95F | - | - | >1 µM
CC(C)CN(C[C@@H](O)[C@H](Cc1ccccc1)NC(=O)O[C@H]1CO[C@H]2OCC(F)(F)[C@H]21)S(=O)(=O)c1ccc(N)cc1 | Clinical isolate | L10I I15V K20R L24I M36I M46L I54V I62V L63P K70Q V82A L89M | - | clinical isolate, multidrug-resistant | 0.002 µM
Nc1ccn([C@H]2CC[C@@H](CO)O2)c(=O)n1 | - | RT-L74V | p24 | - | 0.23 µM
Cc1cn([C@H]2C[C@H](N=[N+]=[N-])[C@@H](CO)O2)c(=O)[nH]c1=O | ROJO(SI) | - | RT activity | - | 0.1 µM
CC(C)(C)NC(=O)[C@@H]1C[C@@H]2CCCC[C@@H]2CN1C[C@@H](O)[C@H](Cc1ccccc1)NC(=O)[C@H](CC(N)=O)NC(=O)c1ccc2ccccc2n1 | BR58 (PR L10I K20R M36I/V P63L/S L90M) | PR-L10I K20R M36I/V P63L/S L90M | p24 | - | 0.006 µM
O=Nc1c(-c2c(O)[nH]c3ccccc23)[nH]c2ccccc12 | RT-M41L L74V V106A T215Y RTMDR | - | p24 | - | <1 µM
C1=Cc2nc1c(-c1ccc(-n3cccc3)cc1)c1ccc([nH]1)c(-c1ccc(-n3cccc3)cc1)c1nc(c(-c3ccc(-n4cccc4)cc3)c3ccc([nH]3)c2-c2ccc(-n3cccc3)cc2)C=C1 | LAV | - | RT activity | - | 7.3 µM
CC(C)(C)NC(=O)[C@@H]1C[C@@H]2CCCC[C@@H]2CN1C[C@@H](O)[C@H](Cc1ccccc1)NC(=O)[C@H](CC(N)=O)NC(=O)c1ccc2ccccc2n1 | Clinical isolate | L10I I15V K20R L24I M36I M46L I54V I62V L63P K70Q V82A L89M | - | multidrug-resistant | 0.31 µM
Cc1c(O)cccc1C(=O)N[C@@H](CSc1ccccc1)[C@H](O)CN1C[C@H]2CCCC[C@H]2C[C@H]1C(=O)NC(C)(C)C | Clinical isolate | PR-L10I K14R R41K M46L I54V L63P A71V V82A L90M I93L | p24 | - | >1 µM
Nc1ncnc2c1ncn2[C@H]1C[C@@](F)(CC(F)(F)P(=O)(O)O)CO1 | - | - | RT activity | - | 23.8 µM
CC(C)CN(C[C@@H](O)[C@H](Cc1ccccc1)NC(=O)O[C@H]1CCOC1)S(=O)(=O)c1ccc(N)cc1 | Clinical isolate | L10I I15V K20R L24I M36I M46L I54V I62V L63P K70Q V82A L89M | - | clinical isolate, multidrug-resistant | 0.21 µM
Nc1ncnc2c1ncn2CCOCP(=O)(O)O | - | - | RT activity | - | 0.31 µM
CC(C)CN(C[C@@H](O)[C@H](Cc1ccccc1)NC(=O)[C@@H](NC(=O)CNCc1cccc(F)c1)C(C)(C)C)S(=O)(=O)c1cccc(N)c1 | NL4-3 | - | p24 | - | <0.0065 µM
S=C(NCCc1ccccn1)Nc1ccc(Br)cn1 | NRTI resistant (RT Y181C K103N) A17 variant | RT-Y181C K103N | p24 | - | >100 µM
COc1ccc(OC)c(CCNC(=S)Nc2ccc(Br)cn2)c1 | RT-Y181C K103N A17 variant NNRTI-resistant | - | p24 | - | 8 µM
S=C(NCCc1cccs1)Nc1ccc(Br)cn1 | NRTI resistant (RT L74V M41L V106A T215Y) MDR | RT-L74V M41L V106A T215Y | p24 | - | 0.004 µM
c1cc(CN2CCCNCCNCCCNCC2)ccc1CN1CCCNCCNCCCNCC1 | 92US077 CLADE B R5X4 | - | p24 | - | <0.1 µM
Cc1cn([C@H]2C[C@H](N=[N+]=[N-])[C@@H](CO)O2)c(=O)[nH]c1=O | LAI Laboratory isolate | - | p24 | - | 0.003 µM
CCOP(=O)(OCC)C(F)(F)C[C@@]1(F)CO[C@@H](n2cnc3c(Cl)nc(N)nc32)C1 | - | - | RT activity | - | 48.6 µM
CCCc1cc(=O)oc2c3c(c4c(c12)OC(C)(C)C=C4)O[C@@H](C)[C@H](C)[C@@H]3O | WEJO | - | RT activity | - | 0.2 µM
CN(C)c1ccc(-c2c3nc(c(-c4ccc(N(C)C)cc4)c4ccc([nH]4)c(-c4ccc(N(C)C)cc4)c4nc(c(-c5ccc(N(C)C)cc5)c5ccc2[nH]5)C=C4)C=C3)cc1 | LAV | - | RT activity | - | >100 µM
Nc1ccn([C@@H]2C=C(F)[C@H](CO)S2)c(=O)n1 | xxBRU WT | - | RT activity | - | <1.7 µM
Cc1ccnc2c1NC(=O)c1cccnc1N2C1CC1 | CLADE B | - | RT activity | - | 0.07 µM
Oc1cccc(O)c1-c1c2nc(c(-c3c(O)cccc3O)c3ccc([nH]3)c(-c3c(O)cccc3O)c3nc(c(-c4c(O)cccc4O)c4ccc1[nH]4)C=C3)C=C2 | LAV | - | RT activity | - | >100 µM
CC(C)(C)NC(=O)[C@@H]1CN(Cc2cccnc2)CCN1C[C@@H](O)C[C@@H](Cc1ccccc1)C(=O)N[C@H]1c2ccccc2C[C@H]1O | Clinical isolate | PR-L10R N37D M46I I62V L63P A71V G73S V77I V82T L90M I93L | p24 | - | 0.55 µM
Cc1cn([C@H]2C[C@H](N=[N+]=[N-])[C@@H](CO)O2)c(=O)[nH]c1=O | xxBRU WT | - | RT activity | - | <0.01 µM
CCCc1cc(=O)oc2c3c(c4c(c12)OC(C)(C)C=C4)O[C@H](C)[C@@H](C)[C@@H]3O | CLADE E | - | RT activity | - | 0.03 µM
O=c1[nH]cnc2c1ncn2[C@H]1CC[C@@H](CO)O1 | - | RT-L74V | p24 | - | 2 µM
CC(C)OC(=O)OCOP(=O)(CO[C@H](C)Cn1cnc2c(N)ncnc21)OCOC(=O)OC(C)C | IIIB | - | p24 | - | 0.005 µM
CCO/N=C(\c1ccc(Br)cc1)C1CCN(C2(C)CCN(C(=O)c3c(C)cc[n+]([O-])c3C)CC2)CC1 | QZ4589 R5 CLADE B | - | p24 | - | 0.01 µM
O=c1[nH]cnc2c1ncn2[C@H]1CC[C@@H](CO)O1 | 4718 | - | ELISA | - | 3 µM
CC(C)(C)NC(=O)[C@@H]1CN(Cc2cccnc2)CCN1C[C@@H](O)C[C@@H](Cc1ccccc1)C(=O)N[C@H]1c2ccccc2C[C@H]1O | ESP2-4 (PR L10V G48M F53L I54V) | PR-L10V G48M F53L I54V | p24 | - | 0.185 µM
Cc1cn([C@H]2C[C@H](N=[N+]=[N-])[C@@H](CO)O2)c(=O)[nH]c1=O | H112-2 (AZT-susceptible) | - | RT activity | - | 0.005 µM
C[C@H](NC(=O)[C@H](CCCN=C(N)N)NC(=O)c1ccc(CNCc2ccccn2)cc1)c1cccc2ccccc12 | YU-2 R5 clinical isolate | - | p24 | - | >2 µM
CCOP(=O)(OCC)C(F)(F)C[C@@]1(F)CO[C@H](n2cc(C)c(=O)[nH]c2=O)C1 | - | - | RT activity | - | 80 µM
COc1ccc(-c2c3nc(c(-c4ccc(OC)c(OC)c4)c4ccc([nH]4)c(-c4ccc(OC)c(OC)c4)c4nc(c(-c5ccc(OC)c(OC)c5)c5ccc2[nH]5)C=C4)C=C3)cc1OC | LAV | - | RT activity | - | >100 µM
Cc1cn([C@H]2C[C@H](N=[N+]=[N-])[C@@H](CO)O2)c(=O)[nH]c1=O | 458 clinical isolates delavirdine-resistant | - | p24 | - | <0.3 µM
Nc1nc(=O)n([C@@H]2CS[C@H](CO)O2)cc1F | M48 ddI-resistant | - | RT activity | - | 0.01 µM
Cc1cn([C@H]2C[C@H](N=[N+]=[N-])[C@@H](CO)O2)c(=O)[nH]c1=O | LAV | - | RT activity | - | 0.002 µM
COc1ccc(S(=O)(=O)N(CC(C)C)C[C@@H](O)[C@H](Cc2ccccc2)NC(=O)O[C@H]2CO[C@H]3OCC[C@H]32)cc1 | Ba-L Laboratory isolate | - | p24 | - | 0.0003 µM
COc1ccccc1-c1c2nc(c(-c3ccccc3OC)c3ccc([nH]3)c(-c3ccccc3OC)c3nc(c(-c4ccccc4OC)c4ccc1[nH]4)C=C3)C=C2 | LAV | - | RT activity | - | 41.1 µM
CCOP(=O)(OCC)C(F)(F)C[C@@]1(F)CO[C@@H](n2cnc3c(N)ncnc32)C1 | - | - | RT activity | - | 18.6 µM
CC(C)CN(C[C@@H](O)[C@H](Cc1ccccc1)NC(=O)O[C@H]1CCOC1)S(=O)(=O)c1ccc(N)cc1 | HXB2 | PR-M46I I47V I50V | p24 | - | <1.94 µM
O=C1N(Cc2ccc(CO)cc2)[C@H](Cc2ccccc2)[C@H](O)[C@@H](O)[C@@H](Cc2ccccc2)N1Cc1ccc(CO)cc1 | R clinical isolate | - | p24 | - | 0.04 µM
Cc1cn([C@H]2C[C@H](N=[N+]=[N-])[C@@H](CO)O2)c(=O)[nH]c1=O | clinical isolate 1(MOKW WT R5) | - | - | - | 0.016 µM
Cc1ccc(CCNC(=S)Nc2ccc(Br)cn2)cc1 | RT-Y181C A17 NNRTI-resistant | - | p24 | - | 0.07 µM
CCC[C@@]1(CCc2ccccc2)CC(O)=C([C@H](CC)c2cccc(NS(=O)(=O)c3ccc(C(F)(F)F)cn3)c2)C(=O)O1 | Isolate N. Amer 3 | - | p24 | - | <0.07 µM
CC(C)(C)c1cc(-c2c3nc(c(-c4cc(C(C)(C)C)c(O)c(C(C)(C)C)c4)c4ccc([nH]4)c(-c4cc(C(C)(C)C)c(O)c(C(C)(C)C)c4)c4nc(c(-c5cc(C(C)(C)C)c(O)c(C(C)(C)C)c5)c5ccc2[nH]5)C=C4)C=C3)cc(C(C)(C)C)c1O | LAV | - | RT activity | - | 98.6 µM

Repeating the final 3 entries:

SMILES	strain	changes	read by	setting	result
Cc1ccc(CCNC(=S)Nc2ccc(Br)cn2)cc1	RT-Y181C A17 NNRTI-resistant	-	p24	-	0.07 µM
CCC[C@@]1(CCc2ccccc2)CC(O)=C([C@H](CC)c2cccc(NS(=O)(=O)c3ccc(C(F)(F)F)cn3)c2)C(=O)O1	Isolate N. Amer 3	-	p24	-	<0.07 µM
CC(C)(C)c1cc(-c2c3nc(c(-c4cc(C(C)(C)C)c(O)c(C(C)(C)C)c4)c4ccc([nH]4)c(-c4cc(C(C)(C)C)c(O)c(C(C)(C)C)c4)c4nc(c(-c5cc(C(C)(C)C)c(O)c(C(C)(C)C)c5)c5ccc2[nH]5)C=C4)C=C3)cc(C(C)(C)C)c1O	LAV	-	RT activity	-	98.6 µM